The values below come from paper PMC10345191.

Chains of the proteins cited; added tags and fusions are not shown. Chains listed by the source or under a name are the forms on record and can include a tag or linker.
35022 Fab (human), light, as listed by the source, chain 2 of 2: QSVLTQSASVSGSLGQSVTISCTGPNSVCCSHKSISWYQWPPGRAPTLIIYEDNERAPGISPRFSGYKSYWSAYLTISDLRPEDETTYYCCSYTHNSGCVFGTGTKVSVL

By Kd is commonly meant the equilibrium constant for the complex coming apart. Low readings indicate a tighter complex, high ones a looser complex. A word on the koff: it is the first-order rate constant of dissociation.

The target of the assay is 35022 Fab (human). In words: BLI. Background: In BLI a coated tip is dipped into the sample, and binding shifts an interference pattern.

In turn, “EDC cross-linked ConM SOSIP soluble gp140 Env trimer (GMP) (complex)” showed a Kd of 2 µM and a dissociation rate constant (koff) of 8.3e-05 s⁻¹.
